In PubChem BioAssay AID1159562 (GlaxoSmithKline (GSK), 2015):

System: Trypanosoma brucei growth inhibition, luminescence
Assay: antitrypanosomal activity against T. brucei – luminescence (AID 1159562);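 note: parasites grew with compound for 24 h before the luminescence read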

Compound: CC(C)(C)c1ccc(NC2(C(N)=O)CCN(Cc3ccccc3)CC2)cc1
- IC50: 32 µM
